Compound potency records, mixed from different reports. Data source: NIAID ChemDB in PubChem.

Common to all: host cell toxicity; cell line: VERO; endpoint: CC50

An empty or dashed field is not shown. CCn: concentration that lowers growth or viability of the cells by n%. Rows are shuffled and stem from different studies.

SMILES	method	value
Cc1cn([C@@H]2O[C@H](COP(=O)(N[C@@H](C)C(=O)OC(C)C)Oc3ccccc3)C(F)(F)C2(F)F)c(=O)[nH]c1=O	-	>100 µM
CO[C@H]1C[C@H](n2cc(/C=C/Br)c(=O)[nH]c2=O)O[C@@H]1COP1(=O)OCc2cccc(C)c2O1	-	33.5 µg/mL
O=C(N/N=C(\c1nc2ccc([N+](=O)[O-])cc2[nH]c1=O)C(O)c1ccc([N+](=O)[O-])cc1)c1ccncc1	MTT	>130 µM
CC(C)OC(=O)[C@H](C)NP(=O)(OC[C@H]1O[C@@H](n2ccc(=O)[nH]c2=O)C(F)(F)C1(F)F)Oc1ccccc1	-	>100 µM
Nc1ccn([C@@H]2C=C(F)[C@H](CO)O2)c(=O)n1	-	>100 µM
O=C1C=C(Nc2ccccc2N=C2C(N3C4=CCc5ccccc5C4=Nc4ccccc43)=CC(=O)c3ccccc32)C(=O)c2ccccc21	MTT	98.5 µM
O=c1[nH]c(=O)n([C@H]2C[C@H](O)[C@@H](CO)S2)cc1C12CC3CC(CC(C3)C1)C2	-	>125 µM
Cc1cc(=O)c2c([nH]1)c1c(c3[nH]c(C)cc(=O)c32)Oc2ccccc2O1	MTT	163 µM
Nc1ccn([C@@H]2O[C@H](CO)C=C2F)c(=O)n1	-	>100 µM
CNS(=O)(=O)c1sc(N(C)C(=O)Cc2ccc(-c3ccccc3)cc2)nc1C	-	50 µM
COS(=O)(=O)O.N=C(N)c1ccc2cc(OC(=O)c3ccc(N=C(N)N)cc3)ccc2c1	MTT	110 µg/mL
O=c1[nH]c(=O)n([C@H]2C[C@H](O)[C@@H](COP3(=O)OCc4cccc(-c5ccccc5)c4O3)O2)cc1/C=C/Br	-	43 µg/mL
C=CCNC(=S)Nc1ccc(-c2n[nH]c(=S)n2C)cc1	-	<0.698 µg/mL
O=c1ccn([C@@H]2O[C@H](CO)C(F)(F)C2(F)F)c(=O)[nH]1	-	>100 µM
S=c1[nH]nc(Cc2nc3n(n2)CCCCC3)o1	-	≥80 µg/mL
O=C(O[C@@H]1[C@@H](c2c(O)cc(O)c3c2O[C@H](c2cc(O)c(O)c(O)c2)[C@H](OC(=O)c2cc(O)c(O)c(O)c2)C3)c2c(O)cc(O)cc2O[C@@H]1c1cc(O)c(O)c(O)c1)c1cc(O)c(O)c(O)c1	XTT	35.5 µM
Cn1cc(NC(=O)c2cc(NC(=O)CCCCCCCCC(=O)Nc3cc(C(=O)Nc4cc(C(=O)NCCC(=N)N)n(C)c4)n(C)c3)cn2C)cc1C(=O)NCCC(=N)N	MTT	54.22 µM
Cc1cc(NCCCCCCCCNc2cc(C)nc3cc(N(C)C)ccc23)c2ccc(N(C)C)cc2n1	MTT	>500 µg/mL
O=c1[nH]c(=O)n([C@H]2C[C@H](O)[C@@H](CO[P@]3(=O)OCc4cccc(-c5ccccc5)c4O3)O2)cc1/C=C/Br	-	37.8 µg/mL
C=C(C)c1cn([C@H]2C[C@H](O)[C@@H](CO)S2)c(=O)[nH]c1=O	-	>100 µM
Cc1nc(N(C)C(=O)Nc2ccc(N3CCOCC3)cc2)sc1S(=O)(=O)N(C)C	-	262.5 µM
NNC(=O)Cc1nc2n(n1)CCCCC2	-	80 µg/mL
Nc1ncnc2c1ncn2[C@@H]1O[C@H](CO)C(F)(F)C1(F)F	-	>100 µM
C=C1CC[C@@H]2[C@](C)(CCC3[C@@]4(C)[C@H](O)CCC(C)(C)[C@@H]4CC[C@]32C)[C@H]1CN=C(N)N	-	135 µM
Nc1nc(=O)n([C@@H]2C=C[C@H](CO)O2)cc1F	-	>100 µM
Cc1cn([C@@H]2O[C@H](CO)C(F)(F)C2(F)F)c(=O)[nH]c1=O	-	>100 µM
CCOC(=O)CC1OP(=O)(OC[C@H]2O[C@@H](n3cc(/C=C/Br)c(=O)[nH]c3=O)C[C@@H]2O)Oc2cccc(Cl)c21	-	18.3 µg/mL
CC/C=C/C/C=C/C/C=C/CCCCCCCC(=O)OC[C@H](CO[C@@H]1O[C@H](CO)[C@@H](O)[C@H](O)[C@H]1O)OC(=O)CCCCCCC/C=C/C/C=C/C/C=C/CC	-	>100 µg/mL
CC(C)c1cn([C@H]2C[C@H](O)[C@@H](CO)S2)c(=O)[nH]c1=O	-	>500 µM
O=c1[nH]c(=O)n([C@H]2C[C@H](O)[C@@H](COP3(=O)OCc4ccc5ccccc5c4O3)O2)cc1/C=C/Br	-	16.3 µg/mL
CC(/C=N/NC(=S)SCc1ccccc1)=N\NC(N)=S	MTT	38.4 µM
C1=CCC2(CC1)COC(c1ccco1)OC2	MTT	>500 µg/mL
Cc1nc(Cc2n[nH]c(=S)n2-c2ccccc2)nn1C	-	400 µg/mL
COc1cccc2c1C(=O)c1c(O)c3c(c(O)c1C2=O)C[C@@](O)(C(C)=O)C[C@@H]3O[C@H]1C[C@H](N(C)C)[C@H](O)[C@H](C)O1	-	85 µM
O=c1cc(-c2ccc(-c3ccccc3)cc2)oc2ccccc12	-	470 µg/mL
COc1ccc(-n2c(Cc3nc4n(n3)CCCC4)n[nH]c2=S)cc1	-	>400 µg/mL
O=c1[nH]c(=O)n([C@H]2C[C@H](O)[C@@H](COP3(=O)OCc4c(ccc5ccccc45)O3)O2)cc1/C=C/Br	-	44.8 µg/mL
O=C1C(=O)c2c(nc3ccccn23)-c2ccccc21	MTT	>252 µM
CCc1nc(CC(=O)NN=C(C)C)nn1CC	-	400 µg/mL

Repeating the first 5 entries:

SMILES,method,value
Cc1cn([C@@H]2O[C@H](COP(=O)(N[C@@H](C)C(=O)OC(C)C)Oc3ccccc3)C(F)(F)C2(F)F)c(=O)[nH]c1=O,-,>100 µM
CO[C@H]1C[C@H](n2cc(/C=C/Br)c(=O)[nH]c2=O)O[C@@H]1COP1(=O)OCc2cccc(C)c2O1,-,33.5 µg/mL
O=C(N/N=C(\c1nc2ccc([N+](=O)[O-])cc2[nH]c1=O)C(O)c1ccc([N+](=O)[O-])cc1)c1ccncc1,MTT,>130 µM
CC(C)OC(=O)[C@H](C)NP(=O)(OC[C@H]1O[C@@H](n2ccc(=O)[nH]c2=O)C(F)(F)C1(F)F)Oc1ccccc1,-,>100 µM
Nc1ccn([C@@H]2C=C(F)[C@H](CO)O2)c(=O)n1,-,>100 µM